## Fitness of HIV-1 LAI Vif variants in SupT1-APOBEC3G cells

Reference: Langley et al. 2025, preprint, doi:10.1101/2025.10.20.683452.

Protein: Vif of HIV-1 LAI (a laboratory-adapted subtype B strain). Residues 12-115 were scanned and are shown below; the first letter is residue 12.
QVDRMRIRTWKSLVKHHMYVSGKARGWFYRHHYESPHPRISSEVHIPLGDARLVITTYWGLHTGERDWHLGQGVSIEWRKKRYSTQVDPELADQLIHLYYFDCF

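Pooled viruses with one designed change each in Vif went through two 72 h rounds in SupT1 cells expressing APOBEC3G. Each of three replicates was sequenced after round two and set against the merged round-one pool. Changes do not touch integrase, since the pol overlap was removed.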

The score is log2 enrichment against the wild-type codon: higher is better tolerated, lower is depleted.
Substitutions are written as wild-type residue, site number, new residue.
The median of three replicates is given, with the replicates in brackets.
Input reads are the counts in the merged round-one pool, before selection.

substitution,input reads,median log2 enrichment
Q105G,219,-2.11 (-1.68 -3.05 -2.11)
R19N,867,-2.58 (-2.58 -1.16 -4.11)
E45A,653,2.60 (-0.09 2.60 4.01)
K22G,538,-1.35 (-1.79 2.04 -1.35)
Y30V,512,-1.07 (-0.88 -2.44 -1.07)
R41V,405,-3.20 (-3.20 -2.35 -4.14)
I87Y,445,-2.26 (-2.26 0.67 -2.94)
L81Q,383,-3.19 (-3.29 -1.92 -3.19)
L102E,165,-5.16 (-1.93 -5.16 -5.20)
D14T,548,-0.57 (-0.57 0.51 -0.69)
K92D,864,-1.80 (-1.80 1.41 -2.43)
E45Y,476,-2.97 (-1.99 -4.00 -2.97)
I66V,528,-2.46 (-2.50 1.47 -2.46)
K34T,837,-2.02 (-1.05 -3.05 -2.02)
F112H,526,-2.48 (-1.63 -2.48 -3.40)
V85Y,24,2.59 (0.36 4.56 2.59)
E45F,129,2.06 (2.06 4.40 1.19)
I107G,129,-4.84 (0.69 -6.36 -4.84)
F39T,2832,-1.04 (-0.84 -2.47 -1.04)
D104P,32,-2.77 (-2.39 -2.77 -2.85)
W21S,815,-0.82 (-0.82 0.94 -1.65)
K34N,558,-0.93 (-0.93 -1.20 0.37)
H42S,98,1.00 (1.00 -1.95 4.35)
D113Q,369,-2.42 (-2.42 2.25 -2.67)
G82K,385,-4.26 (-4.36 -4.26 -3.24)
L102R,24,-1.98 (-1.98 3.89 -2.44)
E45G,121,0.66 (5.20 -0.85 0.66)
I51D,392,-3.90 (-4.38 -3.90 -2.19)
S46G,648,-1.36 (-1.36 0.15 -2.42)
S53W,475,-2.06 (0.33 -2.21 -2.06)
D113H,406,1.18 (1.18 -1.33 1.20)
W79E,486,-3.95 (-4.71 -3.91 -3.95)
K22Y,489,-0.94 (-0.32 -2.04 -0.94)
F39R,497,0.76 (1.59 0.76 -0.67)
A35N,1080,-1.01 (-0.68 -1.96 -1.01)
E101G,199,-2.64 (-2.64 -0.87 -3.88)
I87D,1097,-3.69 (-3.77 -2.98 -3.69)
K26Y,431,-0.91 (-0.91 -2.51 -0.90)
H80Q,191,0.56 (0.56 -1.27 6.19)
F39V,442,-1.20 (-1.20 -3.42 2.15)
V55L,456,-3.87 (-3.87 -3.96 -2.02)
E88K,20,-1.71 (-1.71 2.72 -2.18)
P58D,191,-0.18 (-0.18 -1.26 4.08)
G71P,127,-2.76 (-2.76 -4.05 -2.02)
G37A,101,-4.03 (-4.03 -4.46 -2.91)
R90A,296,-2.87 (-4.01 -0.71 -2.87)
A103Q,18,3.81 (3.81 5.19 -0.44)
Y110H,145,-0.84 (-0.84 -4.23 0.98)
R15K,337,-1.01 (-1.01 -1.30 1.61)
G33L,1151,-1.84 (0.71 -3.41 -1.84)
I57T,323,-1.93 (-1.79 -1.93 -3.35)
T74V,437,-1.46 (-1.87 2.83 -1.46)
R19S,177,1.65 (0.23 1.65 3.28)
L59Y,23,-0.34 (-0.34 4.62 -0.79)
H27W,221,-2.32 (-2.32 -2.78 -1.92)
V31D,2954,-0.95 (-0.95 0.11 -1.11)
L72H,782,-1.20 (-1.47 1.02 -1.20)
L59F,906,-0.44 (-1.26 -0.44 0.71)
E45L,29,0.10 (0.10 -4.23 0.81)
K92N,524,-0.50 (2.88 -1.16 -0.50)
I18K,90,0.21 (-1.54 3.83 0.21)
S53R,644,-1.79 (-1.79 -2.56 -1.47)
T68D,1352,-1.06 (-3.25 -0.69 -1.06)
T68W,29,1.20 (1.20 5.29 -1.09)
Y40I,3667,-1.87 (-1.25 -4.33 -1.87)
T20K,148,1.11 (0.20 3.53 1.11)
Y44Q,223,-4.00 (-1.24 -4.00 -4.05)
D78G,116,-1.49 (-4.23 3.34 -1.49)
Y30W,332,-2.48 (-1.10 -4.05 -2.48)
K22P,357,-1.94 (-1.94 1.53 -2.07)
G84P,1590,-1.89 (0.41 -3.18 -1.89)
T96W,331,-2.55 (-2.55 -2.20 -3.00)
G60V,1102,-1.74 (-1.74 -1.86 -0.52)
G37F,379,-0.38 (-0.38 2.44 -0.57)
K91T,351,-3.02 (-3.02 -5.01 -2.80)
V31P,351,0.78 (0.78 -3.58 1.05)
W21T,229,1.01 (3.92 -0.77 1.01)
Y40G,1522,-3.36 (-3.09 -3.63 -3.36)
A35Y,1231,-0.98 (-0.98 -3.31 3.02)
R17E,507,-1.70 (-1.70 1.26 -1.75)
Q83Y,328,-1.50 (-1.18 -3.08 -1.50)
E101T,356,-3.13 (-1.72 -3.25 -3.13)
H108N,880,-2.83 (-3.69 1.57 -2.83)
W21A,498,-2.38 (-2.39 0.15 -2.38)
G33R,361,-0.36 (-0.36 0.49 -1.71)
V55T,167,-1.94 (-1.94 1.88 -2.04)
R15W,458,-0.94 (-0.54 -2.66 -0.94)
Y30Q,98,1.37 (1.37 3.72 0.10)
K22T,1031,-3.12 (-3.12 -3.41 -2.64)
D14E,424,-1.44 (-1.44 1.52 -1.80)
Y111K,59,-0.43 (-0.43 -2.46 4.52)
R77G,613,-1.14 (-1.14 2.17 -1.26)
I66Q,447,-2.26 (-2.26 -0.73 -3.80)
P100N,110,-2.25 (-2.55 -2.25 -1.43)
K34A,47,1.15 (1.15 -1.03 5.80)
Q12S,519,-1.52 (-1.52 0.70 -2.09)
R36N,69,-2.03 (0.24 -2.03 -3.95)
K92F,48,-1.35 (-1.35 -3.40 1.12)
H48P,108,-2.52 (-2.52 -3.82 -2.26)
Y111F,1629,-2.73 (-2.73 0.03 -3.27)
L24P,824,-3.69 (-2.66 -3.69 -3.80)
L24Q,529,-1.37 (-1.55 1.59 -1.37)
H42K,779,1.39 (1.88 -2.43 1.39)
S86W,537,-1.88 (-1.88 -2.50 -1.49)
A62S,732,-2.10 (-1.85 -3.78 -2.10)
M16V,61,0.37 (0.40 -1.23 0.37)
Q83E,826,-1.36 (-1.36 -2.14 -0.58)
F115N,328,-4.13 (-4.13 -5.41 -1.43)
V55A,35,-0.19 (-0.19 -4.52 0.48)
R50G,700,-1.01 (0.62 -2.28 -1.01)
K91E,379,-4.35 (-4.35 -4.23 -4.78)
F115I,428,-1.85 (-1.85 -0.30 -3.40)
Y69N,823,-1.68 (-2.64 -0.88 -1.68)
Y110E,340,-2.59 (-2.59 -4.08 -0.07)

The first 7 entries again:

substitution,input reads,median log2 enrichment
Q105G,219,-2.11 (-1.68 -3.05 -2.11)
R19N,867,-2.58 (-2.58 -1.16 -4.11)
E45A,653,2.60 (-0.09 2.60 4.01)
K22G,538,-1.35 (-1.79 2.04 -1.35)
Y30V,512,-1.07 (-0.88 -2.44 -1.07)
R41V,405,-3.20 (-3.20 -2.35 -4.14)
I87Y,445,-2.26 (-2.26 0.67 -2.94)

The scan is noisy: the rank correlation of replicates is about 0.4 to 0.65, and variants with under about 50 input reads tend to read too high.
Some changes are missing from the data or left out.
Positive scores are uncertain; some enriched variants did not exclude APOBEC3G in a separate test.